Test results: patent US20240270826A1 (NATIONAL RESEARCH COUNCIL OF CANADA, published 2024)

B1: NRCoV2-1d VHH (VHH)
VHH: EVQLVESGGGSVQPGGSLRLSCAASGSTLDYYAIGWFRQAPGKEREWVSSVSSSDGNTLYADSVKGRFTISRDNAKNTVYLQMNSLKAEDTAVYVCAADYSMRPFAVGRWHRDYEYWGQGTQVTVSS
B2: NRCoV2-02 VHH (VHH)
VHH: EVQLVESGGGLVQAGGSLRLSCAASGFTFSNYAMNWVRQAPGKGLEWVSGISGRGDDTRYADSVKGRFTISRDNAKNTLFLQMRSLRPEDTGVYRCTKGPDLYYFGSGYSDRGQGTQVTVSS
B3: NRCoV2-03 VHH (VHH)
VHH: EVQLVSSGGGLVQAGGSLRLSCTASGITFSYYAMGWYRQAPGQPRELVASMSNMDSTIYADSVKGRFTISRDNAKTTIYLQMNNLKPEDTAVYFCNIYGPTYSTRRNEYWGQGTQVTVSS
B4: NRCoV2-04 VHH (VHH)
VHH: AVQLVDSGGGLVQPGGSLRLSCAASGSPFSNVVMAWYRQAPGKQRERVAFISGGGIADYIMSVKGRFTISRDNAKNTVYLQMNSLKPEDTAVYYCWSSYESTWGQGTQVTVSS
B5: NRCoV2-05 VHH (VHH)
VHH: EVKLVQSGGGLVQPGGSLRLSCAASGFIFSNYAMNWVRQAPGKGLEWVSGINSGGGDTRYADSVKGRFTVSRDNAKNTLYLQMNSLKPEDTGVYYCSKGPVSSYYGSGYDYRGQGTQVTVSS
B6: NRCoV2-06 VHH (VHH)
VHH: EVQLVQSGGGLVQAGESLRLSCAASVSTFSSYAMGWYRQAPGKQRELVASIGFVGATYYIDSVKGRFTISRDNAKKTAYLQMNDLKPDDTAVYYCNARHYGGSEYWGQGTQVTVSS
B7: NRCoV2-07 VHH (VHH)
VHH: QVQLVQSGGGLVQPGGSLRLSCAASGVTLDYYAIGWFRQAPGKEREAVSCISSNGRRNHYVASVRGRFTISRDNAKSTVYLQMNSLKPEDTAVYYCAAVQDVHGDNYYCTSPNEYNVWGQGTQVTVSS
B8: NRCoV2-10 VHH (VHH)
VHH: QLQLQESGGGLVQPGGSLTLSCAASGNTFSRSNMHWYRQAPGAQREWVAAISSRGISTYAYSAKGRFTISRDNAKNTVSLQMNSLKPEDTAVYYCYAADDLGDYWGQGTQVTVSS
B9: NRCoV2-11 VHH (VHH)
VHH: EVQLVSSGGGLVQPGGSLRLSCAASGSSLDSYSVSWFRQAPGKEREWISFISRYYSSTYYTDSVKGRFTTSRDGDQKTVHLQMNSLKPEDTAVYYCAARSRDFSSPFSATDTYTSWGQGTQVTVSS
B10: NRCoV2-14 VHH (VHH)
VHH: EVQLVSSGGGLVQAGGSLRLSCEASGTTFSHYAVGWYRQAPGKQREWVASISVFGSTTYGGSVAGRFTISRDNDKNTVDLQMNSLKPEDTAVYYCHAVNADIGGDYWGQGTQVTVSS
B11: NRCoV2-15 VHH (VHH)
VHH: EVQLVSSGGGLVEAGGSLRLSCIASGSTSGRNTMGWFRQAPGKQREWVAIVSTSGATNYAGSVKGRFTLSRDNAKNAVYLQMNNLKPEDTAVYYCYAAYGGGGDYWGQGTQVTVSS
B12: NRCoV2-17 VHH (VHH)
VHH: EVQLQQSGGGLVQTGGSLRLSCAAAGSPFSQLAMSWYRQISGKERAWVASISPTGNRSYSKIAKGRFTISRDNAKNTVTLQMTSLKPEDTAAYICQAANVNGGDYWGQGTQVTVSS
B13: NRCoV2-18 VHH (VHH)
VHH: EVQLVESGGGLVQAGGSLRLSCVASGITISGYNMAWWRQTRGKQTERVAFINSGGSTTYSDSVKGRFTISRDNGKNTAYLQMNSLNAEDTADYFCSLHTSHDYWGQGTQVTVSS
B14: NRCoV2-20 VHH (VHH)
VHH: EVQLQQSGGGLVQPGGSLRLSCAASGRTFSNYVVGWFRQAPQAPGKDHEFVAVISGSDTETYYADSVKGRFTISRDNAKNTVYLQMNSLKPEDTAVYYCAADRGMSYYYTRATEYYYWGQGTQVTVSS
B15: NRCoV2-MRed04 VHH (VHH)
VHH: EVQLVESGGGLVQPGRSLRLSCAASGNSFSISTMGWFRQAPGKERELVASIWSDTTTSYADSVKGRFTISTDNTRTKVYLQMSSLNPEDTAVYYCAADRGFVVRGQYDYWGQGTQVTVSS
B16: NRCoV2-SR01 VHH (VHH)
VHH: EVQLVQSGGGSVQAGGSLRLSCVASGFTFDNYAIGWFRQAPGKEREGVSCISGNGGVTIYADSVKGRFTISRDNAKNLVYLQMNSLKPEDTAVYYCAATGIRSTWSVYGCSRLAGPYDYWGQGTQVTVSS
B17: NRCoV2-SR02 VHH (VHH)
VHH: EVQLVDSGGGLVQAGGSLRLSCTASEFTLNYYSIGWFRQSPGKEREGVSCIRYSGGGIDYADSVKGRFTISRDNAKNTVYLTMNSLKPEDTAVYYCAADRLYSRACPTAGGRNYWGQGTQVTVSS
B18: NRCoV2-SR03 VHH (VHH)
VHH: AVQLVDSGGGLVQAGGSLRLSCAASGSIFSNNHMGWYRQAPGKQRELVAAISSGGKTNYADFAKGRFTISRDNAKNMVYLQMNSLKPEDTAVYYCNRGGWEYRSSYYIMGPHWGQGTQVTVSS
B19: NRCoV2-SR04 VHH (VHH)
VHH: QVQLVESGGGLVQAGGSLRLSCAASGRTFSSHTVGWYRQAPGKQRDLVAAISMGGNTNYADYADSVKGRFTISRDNAKNTLYLQMNSLKPEDTAVYYCNTAALVGNRLLPMATITWGQGTQVTVSS
B20: NRCoV2-SR13 VHH (VHH)
VHH: EVQLVESGGGLVTTGGSLRLSCATSGSRFGSKHMAWYRQAPGKQRDLVAAISSGGSTHYGSSVKGRFTISRDNAKSTVYLQMNSLNPEDTAVFYCNMGGWDYRSNTYIPGSRSDYWGQGTQVTVSS
B21: NRCoV2-S2G4 VHH (VHH)
VHH: QVQLVQSGGGLVQAGGSLTLSCAPSGSTFSGYATNWYRQAPGKQRELVATISSDGDKNYADSVKGRFTISRDNAKNTVYLQMNSLKPEDTAVYYCNKHWWTGDWWGQGTQVTVSS
B22: NRCoV2-MRed22 VHH (VHH)
VHH: EVQLVESGGGLVQPGGSLRLSCAASGSVFASNAMGWYRQAPGKQRELVATISSRGSTNYADSVKGRFTISRDNAKNTVYLQMNSLGPEDTAVYYCNAREFTGFDYWGQGTQVTVSS

Assays:
Assay in all cases: SPR, VHH over immobilised S
[1] = target: T1, Human SARS-CoV-2 Alpha (B.1.1.7) S (SARS-CoV-2 (Alpha, B.1.1.7))
[2] = target: T2, Human SARS-CoV-2 Beta (B.1.351) S (SARS-CoV-2 (Beta, B.1.351))
[3] = target: T1, Human SARS-CoV-2 Alpha (B.1.1.7) S; remark: listed apart in the source
[4] = target: T2, Human SARS-CoV-2 Beta (B.1.351) S; remark: listed apart in the source

Row | Binder | Kd [1] [nM] | koff [1] [s⁻¹] | kon [1] [M⁻¹ s⁻¹] | Kd [2] [nM] | koff [2] [s⁻¹] | kon [2] [M⁻¹ s⁻¹] | Kd [3] [nM] | Kd [4] [nM]
1 | B1 | 0.907 | 0.00102 | 1.13e+06 | 1.18 | 0.000956 | 812000 | 0.91 | 1.2
2 | B2 | 13.6 | 0.0222 | 1.64e+06 | – | – | – | 13.6 | –
3 | B3 | 1.49 | 0.000154 | 103000 | 4.08 | 0.000226 | 55400 | 1.49 | 4.08
4 | B4 | 11.7 | 0.0196 | 1.67e+06 | – | – | – | 11.7 | –
5 | B5 | 11.4 | 0.0261 | 2.28e+06 | – | – | – | 11.4 | –
6 | B6 | 229 | 0.00468 | – | 248 | 0.00614 | 24800 | 229 | 248
7 | B7 | 1.12 | 0.000378 | 339000 | 1.05 | 0.000321 | 305000 | 1.1 | 1.1
8 | B8 | 0.21 | 0.000102 | 484000 | 9.73 | 0.00262 | 270000 | 0.21 | 9.73
9 | B9 | 0.0171 | 1.59e-05 | 928000 | 0.0227 | 1.72e-05 | 757000 | 0.017 | 0.023
10 | B10 | 2.44 | 0.000917 | 375000 | – | – | – | 2.44 | –
11 | B11 | 0.305 | 0.000194 | 637000 | 22.2 | 0.00328 | 148000 | 0.31 | 22.2
12 | B12 | 0.125 | 7.64e-05 | – | 5.14 | 0.00588 | 1.14e+06 | 0.13 | 5.1
13 | B13 | 0.353 | 9.79e-05 | 278000 | 0.365 | 0.000101 | 276000 | 0.35 | 0.37
14 | B14 | 4.97 | – | 2.48e+06 | 5.47 | 0.0114 | 2.08e+06 | 4.97 | 5.47
15 | B15 | 0.909 | 0.00122 | 1.34e+06 | 1.07 | 0.00123 | 1.14e+06 | 0.91 | 1.07
16 | B16 | 0.591 | 0.000594 | 1.01e+06 | 0.202 | 0.000221 | 1.09e+06 | 0.59 | 0.2
17 | B17 | 0.0559 | 0.000254 | 4.54e+06 | 0.15 | 0.000628 | 4.19e+06 | – | –
18 | B18 | 1.72 | 0.000955 | 555000 | 2.49 | 0.0014 | 564000 | 1.72 | 2.49
19 | B19 | 0.267 | 0.00075 | 2.8e+06 | 0.324 | 0.000723 | 2.24e+06 | 0.27 | 0.32
20 | B20 | 5.82 | 0.00344 | 592000 | 7.02 | 0.00401 | 571000 | 5.8 | 7
21 | B21 | 0.187 | 0.000292 | 1.56e+06 | – | – | – | 0.19 | –
22 | B22 | 0.246 | 0.00022 | 896000 | – | – | – | 0.25 | –

Like-named read-outs stand apart in the source and are kept apart here.
